Measurements reported in PubChem BioAssay AID624099 (ICCB-Longwood, 2012).
The deposit covers about 21,000 reagents; shown is an unselected part. 497 of them (2.4%) were called active. 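Higher z means weaker E2 silencing; only reporter increases were scored, and knock-downs that hurt cell survival may mask genuine repressor factors.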 Reagents against one gene are numbered here. Reagent sequences are not shown.

Purpose: 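Host factors E2 relies on to silence an HPV18 LCR reporter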 (primary screen)
System: human C33A cervical carcinoma cells (HPV-negative) stably expressing BPV1 E2 and an HPV18 LCR luciferase reporter
Reagents: siRNA pool against human genes, 40 nM
Timing: 72 h
Detection: 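Per-well luciferase luminescence, z-scored on each plate against the plate mean and SD with control wells left out, then averaged across three replicate plates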
Reading the numbers: mean z-score and z-score: higher = stronger reporter signal, weaker E2 silencing
Rule for the call: 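Mean z ≥ 2 together with z ≥ 2 in two or more of the three replicates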

FSHR — mean z-score = -0.75; z-score, replicate A = -0.41; z-score, replicate B = -1.05; z-score, replicate C = -0.77; Call = inactive
LOC390738 (retired record) — mean z-score = 0.69; z-score, replicate A = 1.21; z-score, replicate B = 0.5; z-score, replicate C = 0.37; Call = inactive
ZNF678 #1 — mean z-score = 0.41; z-score, replicate A = 0.36; z-score, replicate B = 0.48; z-score, replicate C = 0.39; Call = inactive
ZNF678 #2 — mean z-score = 3.09; z-score, replicate A = 3.28; z-score, replicate B = 2.84; z-score, replicate C = 3.14; Call = active
OR10V1 — mean z-score = -0.26; z-score, replicate A = -0.29; z-score, replicate B = 0; z-score, replicate C = -0.48; Call = inactive
HMGA2 — mean z-score = 2.25; z-score, replicate A = 2.73; z-score, replicate B = 1.88; z-score, replicate C = 2.14; Call = active
PTH2 — mean z-score = 0.3; z-score, replicate A = 0.37; z-score, replicate B = 0.35; z-score, replicate C = 0.17; Call = inactive
KCNK13 — mean z-score = -0.54; z-score, replicate A = -0.4; z-score, replicate B = -0.44; z-score, replicate C = -0.79; Call = inactive
LYZL6 — mean z-score = -0.82; z-score, replicate A = -1.13; z-score, replicate B = -0.84; z-score, replicate C = -0.5; Call = inactive
DEFA4 — mean z-score = 1.03; z-score, replicate A = 0.81; z-score, replicate B = 1.28; z-score, replicate C = 0.99; Call = inactive
MON1A — mean z-score = -0.66; z-score, replicate A = -0.84; z-score, replicate B = -0.61; z-score, replicate C = -0.55; Call = inactive
XK — mean z-score = -0.07; z-score, replicate A = 0.16; z-score, replicate B = 0.03; z-score, replicate C = -0.41; Call = inactive
UBXN8 — mean z-score = 0.33; z-score, replicate A = 0.48; z-score, replicate B = 0.43; z-score, replicate C = 0.07; Call = inactive
PLA2G2D — mean z-score = -0.1; z-score, replicate A = -0.12; z-score, replicate B = 0.08; z-score, replicate C = -0.25; Call = inactive
NPEPL1 — mean z-score = 0.29; z-score, replicate A = 0.5; z-score, replicate B = 0.25; z-score, replicate C = 0.13; Call = inactive
LOC390547 (retired record) — mean z-score = 1.29; z-score, replicate A = 1.62; z-score, replicate B = 1.16; z-score, replicate C = 1.1; Call = inactive
HBA1 — mean z-score = -1; z-score, replicate A = -0.87; z-score, replicate B = -0.98; z-score, replicate C = -1.14; Call = inactive
FGG — mean z-score = -0.09; z-score, replicate A = -0.05; z-score, replicate B = -0.11; z-score, replicate C = -0.1; Call = inactive
EPS8L1 — mean z-score = 0.42; z-score, replicate A = 0.15; z-score, replicate B = 0.34; z-score, replicate C = 0.78; Call = inactive
TAF1L — mean z-score = -1.34; z-score, replicate A = -1.47; z-score, replicate B = -1.24; z-score, replicate C = -1.3; Call = inactive
GUCY2D — mean z-score = -0.85; z-score, replicate A = -0.42; z-score, replicate B = -0.92; z-score, replicate C = -1.22; Call = inactive

2 of these entries in another layout.
target gene | reagent no. | mean z-score | z-score, replicate A | z-score, replicate B | z-score, replicate C | Call
XK | 1 | -0.07 | 0.16 | 0.03 | -0.41 | inactive
UBXN8 | 1 | 0.33 | 0.48 | 0.43 | 0.07 | inactive
